Results on two molecules are retold here after paper PMC10403511, “DNA-encoded chemical libraries yield non-covalent and non-peptidic SARS-CoV-2 main protease inhibitors” (Communications Chemistry, 2023).

The target in this assay is SARS-CoV-2 M^pro (Severe acute respiratory syndrome coronavirus 2, UniProt P0DTD1). Put plainly: M^pro enzyme inhibition assay, proteolytic cleavage of fluorescent peptide reporter, Ki by Morrison equation. Format: biochemical.

Structures are written as SMILES. Read-outs that look alike come from different tables or passages of the source.

In turn, `CCC[C@H](NC(=O)c1cccc2nc(-c3cncc4ccccc34)n(C3CCC3)c12)c1ccc(OC(F)F)cc1` registered a Ki of 67 nM. The Ki (read-out: Mpro Ki) worked out at 71 nM.

Regarding `CCC[C@H](NC(=O)c1cccc2nc(-c3cccnc3)n(CCCC(=O)NC)c12)c1ccc(C(F)(F)F)cc1`, the Ki (read-out: Mpro Ki) amounted to 805 nM.

The Ki is a measure of affinity in units of concentration, obtained from inhibition or displacement.
